Assay results from patent publication US20200239529A1.

Target: CXCR4, human, P61073 1-352
Experiment: cell-based or functional assay

With T22-mRTA-H6 the IC50 of cytotoxicity on CXCR4+ HeLa cells after 72 h was 13 nM.
